In article PMC9894610:

Experiments:
[1] = target: His-OpaR (Vibrio parahaemolyticus RIMD2210633) (UniProt Q79YV4); experiment: DNase I footprinting; details: protected -112 to -81 relative to translation start; 10 mM Tris-HCl pH 7.5, 50 mM NaCl, 1 mM MgCl2, 0.5 mM EDTA, 0.5 mM DTT, 0.05 mg/ml salmon sperm DNA; footprinting in same buffer, 30 min at room temperature; recombinant protein; residues 1-204; protein details: 6xHis (pET28a); label: 32P at a single end (coding or non-coding strand); probe letters rebuilt from the primers and the …
[2] = target: His-OpaR (Vibrio parahaemolyticus RIMD2210633) (UniProt Q79YV4); experiment: EMSA; details: 0.05 mg/ml salmon sperm DNA, dose-dependent, 10 mM Tris-HCl pH 7.5, 50 mM NaCl, 1 mM MgCl2, 0.5 mM EDTA, 0.5 mM DTT, footprinting in same buffer, 30 min at room temperature, recombinant protein, residues 1-204, protein details: 6xHis (pET28a), label: 5'-32P, probe letters rebuilt from the primers and the genome

Sequence: TTGGATTTGCTGCTTAAGTTGGGCTAATAGCGGGTTATCTTGAAACATCTTTTCTTAACTTACCAATGGAGTTGGCCACACTATAATCATTGCGGGCTATTATTACTACCTAAAGCACACAAATTCGCTGTGAATTATTGATGAATTAAACAGCTCAACGGTGCTTTTCTCTTCGGAGAAACGGGCGGTAGGTGGATTTTTATGCGGATATTACCATTAGTGAGAATAAATTGTGATGTAATTCAATTTTTTCTAGCTTTTTTTATGCATTTAAGGAATAATCCGCCTCCCTTAGTCGTCCC (double strand) [vpa0607 upstream fragment (DNase I footprinting)]
- binding result [1]: binds

Sequence: TTGGATTTGCTGCTTAAGTTGGGCTAATAGCGGGTTATCTTGAAACATCTTTTCTTAACTTACCAATGGAGTTGGCCACACTATAATCATTGCGGGCTATTATTACTACCTAAAGCACACAAATTCGCTGTGAATTATTGATGAATTAAACAGCTCAACGGTGCTTTTCTCTTCGGAGAAACGGGCGGTAGGTGGATTTTTATGCGGATATTACCATTAGTGAGAATAAATTGTGATGTAATTCAATTTTTTCTAGCTTTTTTTATGCATTTAAGGAATAATCCGCCTCCCTTAGTCGTCCCTAATGGCTTATCGCGGTTGTGTACTGTGCTAACTCCTGTCTGAATGGATTTAGTAACTGGATGAATCAGTATCGAATTGGAAGAGCATATGGGACTGTTTTTTTGTTTAATTAAGTAGGATCCCAATGCAAGATTCTGTTATTCAATTCAGCGATTTATCTCTGAATGATTCTATCCTTTCTGCTCTAGACGGAATGGGTTTCGTGTCACCAACTCCAATTCAGGCTGCGGCAATCCCACACCTATTGGAAGGTGCTGACGCGCTGGGTAAAGCACAGACGGGT (double strand) [vpa0607 upstream fragment (EMSA)]
- binding result [2]: binds
